Anti-infective test results gathered from many reports (values: NIAID ChemDB through PubChem).

Common to all: tests in culture; species: HIV-1; cell line: CEM + CEM-SS; read-out: EC50

Neighbouring rows are from separate reports. ECn is the concentration giving n% inhibition of infection, replication or growth. An empty or dashed field is not shown.

smiles | strain or isolate | mutations | read by | result
O=S1CC(CO)(CO)CS1 | RF | - | cytopathic effect / XTT | >200 µM
Cc1cc(C)cc([Se]c2c(C(C)C)c(=O)[nH]c(=S)n2COCc2ccccc2)c1 | RF | - | cytopathic effect / XTT | 0.054 µM
Cc1ccnc2c1NC(=O)c1cccnc1N2C1CC1 | E BPTU-resistant (RT Y181C) | RT-Y181C | cytopathic effect / XTT | 1.9 µM
CCc1c(Sc2ccccn2)n(COCc2ccccc2)c(=O)[nH]c1=O | 4XAZT+L100I (RT D67N K70R L100I T215Y K219Q) | RT-D67N K70R L100I T215Y K219Q | cytopathic effect / XTT | 0.018 µM
Cc1cc(C)cc([Se]c2c(C(C)C)c(=O)[nH]c(=O)n2COCc2ccccc2)c1 | RF | - | cytopathic effect / XTT | 0.031 µM
C/C=C/CSc1cc(NC(=S)c2ccsc2C)ccc1Cl | NL4-3 (RT Y188C) | RT-Y188C | cytopathic effect / XTT | 0.6 µM
Nc1ccn([C@H]2CC[C@@H](CO)O2)c(=O)n1 | RF | - | cytopathic effect / XTT | 0.018 µM
CC(C)=CCN1Cc2cccc3[nH]c(=S)n(c23)C[C@@H]1C | Costatolide-resistant (RT L100I T139I) | RT-L100I T139I | XTT | >35 µM
O=CNc1ccc(S(=O)(=O)c2ccc(NC=O)cc2)cc1 | RF | - | cytopathic effect / XTT | >100 µg/mL
Cc1occc1C(=S)Nc1ccc(Cl)c(/C=N/OC(C)(C)C)c1 | UC040-R (RT-Y181C) | RT-Y181C | cytopathic effect / XTT | 0.8 µM
Nc1nc2cc(Cl)c(Cl)cc2n1Cc1ccc(Cl)cc1 | IIIB | - | RT activity | 10 µM
O=C(Nc1ccccc1)C1=COCCS1 | IIIB | RT-Y181C | cytopathic effect / XTT | 3.9 µM
Cc1cn([C@H]2C[C@H](N=[N+]=[N-])[C@@H](CO)O2)c(=O)[nH]c1=O | HXB2 WT | - | plaque count | 0.0001 µM
NC(N)=NC(N)=Nc1cccc(S(=O)(=O)c2cccc(N=C(N)N=C(N)N)c2)c1 | RF | - | XTT | >100 µg/mL
CCCCCCCCCCCCSCC(COP(=O)([O-])OCC[N+](C)(C)C)OCCCCCCCCO | R5X4 WT | - | plaque count | 0.16 µM
CCCc1cc(=O)oc2c3c(c4c(c12)OC(C)(C)CC4)O[C@H](C)[C@@H](C)[C@@H]3O | RF | - | p24 | 0.12 µM
O=C(NCCc1c[nH]c2ccccc12)C1=Cc2ccncc2CC1 | RF | - | cytopathic effect / XTT | >51 µM
O=S1(=O)CCCCS1 | RF | - | cytopathic effect / XTT | >5.7 µM
Cc1cn([C@H]2C[C@H](N=[N+]=[N-])[C@@H](CO)O2)c(=O)[nH]c1=O | UC10-resistant (RT Y181C K101E) | RT-Y181C K101E | cytopathic effect / XTT | 0.2 µM
CC(C)c1c([Se]c2ccccc2)n(COCc2ccccc2)c(=S)[nH]c1=O | RF | - | cytopathic effect / XTT | 0.046 µM
CCc1c(C(=O)c2cc(C)cc(C)c2)n(CC2CC=CC2)c(=O)[nH]c1=O | NL4-3 | RT-V108I | cytopathic effect / XTT | 0.003 µM
CC(=O)OCC1(COC(C)=O)CSSC1 | RF | - | cytopathic effect / XTT | >200 µM
Cc1cn([C@H]2C[C@H](N=[N+]=[N-])[C@@H](CO)O2)c(=O)[nH]c1=O | Diphenyl sulfone-resistant (RT-Y181C) | RT-Y181C | XTT | 0.01 µM
CCc1c([Se]c2cc(C)cc(C)c2)n(COCCO)c(=O)[nH]c1=O | RF | - | cytopathic effect / XTT | 0.022 µM
Cc1cn([C@H]2C[C@H](N=[N+]=[N-])[C@@H](CO)O2)c(=O)[nH]c1=O | 4XAZT/L100I (RT D67N K70R L100I T215Y K219Q) | RT-D67N K70R L100I T215Y K219Q | cytopathic effect / XTT | 0.1 µM
Cc1cn([C@H]2C[C@H](N=[N+]=[N-])[C@@H](CO)O2)c(=O)[nH]c1=O | RF | - | cytopathic effect / MTT | 0.004 µM
CCCc1cc(=O)oc2c3c(c4c(c12)OC(C)(C)C=C4)O[C@H](C)[C@@H](C)[C@@H]3O | RF | - | p24 | 0.07 µM
CCOCn1c([Se]c2ccccc2)c(C(C)C)c(=O)[nH]c1=S | RF | - | cytopathic effect / XTT | 0.034 µM
Cc1ccnc2c1NC(=O)c1cccnc1N2C1CC1 | IIIB | - | cytopathic effect / XTT | 0.03 µM
Nc1ccn([C@H]2CC[C@@H](CO)O2)c(=O)n1 | SK1 | - | cytopathic effect | 0.0254 µM
Cc1cn([C@H]2C[C@H](N=[N+]=[N-])[C@@H](CO)O2)c(=O)[nH]c1=O | A17 | - | cytopathic effect / XTT | 0.14 µM
Cc1cn([C@H]2C[C@H](N=[N+]=[N-])[C@@H](CO)O2)c(=O)[nH]c1=O | NL4-3 | RT-V106I | cytopathic effect / XTT | 0.003 µM
CC1=C(C(=O)Nc2ccc(Cl)c(C(=O)OC(C)C)c2)SCCO1 | IIIB | - | cytopathic effect / XTT | 0.084 µM
CCCCCCCCCCCCSCC(COP(=O)([O-])OCC[N+](C)(C)C)OCCCCCCCCC(=O)OCC(=O)OC[C@H]1O[C@@H](n2cc(C)c(=O)[nH]c2=O)C[C@@H]1N=[N+]=[N-] | IIIB | - | plaque count | 0.004 µM
Cc1cn([C@H]2C[C@H](N=[N+]=[N-])[C@@H](CO)O2)c(=O)[nH]c1=O | IIIB | - | plaque count / syncytia | 0.0026 µM
O=S1(c2ccccc2)=NC(=S)Nc2ccccc21 | IIIB | - | cytopathic effect / XTT | 1.39 µM
Cc1cn([C@H]2C[C@H](N=[N+]=[N-])[C@@H](CO)O2)c(=O)[nH]c1=O | KELL | - | cytopathic effect / XTT | 0.0012 µM
Cc1cn([C@H]2C[C@H](N=[N+]=[N-])[C@@H](CO)O2)c(=O)[nH]c1=O | MN | - | cytopathic effect / XTT | 0.001 µM
O=[N+]([O-])c1ccccc1S(=O)(=O)c1ccccc1 | IIIB | - | cytopathic effect / XTT | 1.94 µM
COc1ccc(Cn2c(Br)nc3cc(Cl)c(Cl)cc32)cc1 | IIIB | - | plaque count / syncytia | 6 µM
Cc1cn([C@H]2C[C@H](N=[N+]=[N-])[C@@H](CO)O2)c(=O)[nH]c1=O | IIIB | - | cytopathic effect / XTT | 0.003 µM
CCCc1cc(=O)oc2c3c(c4c(c12)OC(C)(C)C=C4)O[C@@H](C)[C@H](C)[C@@H]3O | IIIB | - | XTT | 0.1 µM
CC(C)(C)NC(=O)c1ccccc1C[C@@H](O)[C@H](Cc1ccccc1)NC(=O)[C@H](CC(N)=O)NC(=O)c1ccc2ccccc2n1 | RF | - | cytopathic effect / MTT | 0.02 µM
Cc1ccnc2c1NC(=O)c1cccnc1N2C1CC1 | Diphenyl sulfone-resistant (RT-Y181C) | RT-Y181C | XTT | 5.9 µM
Cn1cc(N)cc1C(=O)Nc1cc(C(=O)Nc2ccc3cc(S(=O)(=O)O)cc(S(=O)(=O)O)c3c2)n(C)c1 | A17 | - | cytopathic effect / XTT | 6.7 µM
Cc1ccnc2c1NC(=O)c1cccnc1N2C1CC1 | NL4-3 | RT-L74V | cytopathic effect / XTT | 0.02 µM
O=[N+]([O-])c1ccc(S(=O)(=O)c2ccc([N+](=O)[O-])cc2C(F)(F)F)c(C(F)(F)F)c1 | RF | - | XTT | >100 µg/mL
Cc1ccc(Cn2c(Cl)nc3cc(Cl)c(Cl)cc32)cc1 | IIIB | - | plaque count / syncytia | 33 µM
CC(=O)O[C@@H]1CSS(=O)C[C@H]1OC(C)=O | RF | - | cytopathic effect / XTT | >22.1 µM
Fc1cccc(F)c1C1SCc2nc3ccccc3n21 | RF | - | cytopathic effect / XTT | 1.22 µM
N#Cc1ccc(S(=O)(=O)c2ccc(C#N)cc2)cc1 | RF | - | XTT | >100 µg/mL
Cc1ccnc2c1NC(=O)c1cccnc1N2C1CC1 | NL4-3 | RT-L74V | cytopathic effect / XTT | 0.02 µM
CCc1c([Se]c2cc(C)cc(C)c2)n(COCc2ccccc2)c(=S)[nH]c1=O | RF | - | cytopathic effect / XTT | 0.016 µM
CC1=C(C(=O)Nc2ccc(Cl)c(C(=O)OC(C)C)c2)SCCO1 | RF | - | - | 0.42 µM
CCCc1cc(=O)oc2c3c(c4c(c12)OC(C)(C)C=C4)O[C@H](C)[C@@H](C)[C@@H]3O | Costatolide-resistant (RT L100I T139I) | RT-L100I T139I | XTT | >27 µM
Cc1cn([C@H]2C[C@H](N=[N+]=[N-])[C@@H](CO)O2)c(=O)[nH]c1=O | RF | - | p24 / RT activity | 0.095 µM

A second listing of 6 rows from above:

smiles	strain or isolate	mutations	read by	result
COc1ccc(Cn2c(Br)nc3cc(Cl)c(Cl)cc32)cc1	IIIB	-	plaque count / syncytia	6 µM
Fc1cccc(F)c1C1SCc2nc3ccccc3n21	RF	-	cytopathic effect / XTT	1.22 µM
CCCc1cc(=O)oc2c3c(c4c(c12)OC(C)(C)C=C4)O[C@H](C)[C@@H](C)[C@@H]3O	Costatolide-resistant (RT L100I T139I)	RT-L100I T139I	XTT	>27 µM
Cc1cn([C@H]2C[C@H](N=[N+]=[N-])[C@@H](CO)O2)c(=O)[nH]c1=O	MN	-	cytopathic effect / XTT	0.001 µM
CC(=O)O[C@@H]1CSS(=O)C[C@H]1OC(C)=O	RF	-	cytopathic effect / XTT	>22.1 µM
CC(=O)OCC1(COC(C)=O)CSSC1	RF	-	cytopathic effect / XTT	>200 µM